{"source": "patent US6340573B1", "about": "“Chromogenic substrates for detecting bacterial hydrolases” (Bio Merieux, priority 1998, dated 2002)", "test_system": "Alanine-aminopeptidase", "test": "GRAM identification with impregnated bottle brush", "format": "cell-based, Gram-negative bacteria", "description": "According to a representative example, the GRAM identification process uses a substrate based on aminobenzene or a derivative thereof, such as DiMethyl-paraPhenyleneDiamine (DMpPD). In the example which follows, the substrate consists of Alanine-Dimethyl-paraPhenyleneDiamine (AlaDMpPD).\nIt functions as follows. Enzymatic hydrolysis causes release of the DMpPD group. Next, the DMPD binds with α-naphthol (or a derivative) by oxidative coupling facilitated by an oxidizing agent, potassium ferricyanide (K3Fe(CN)6). This then causes formation of a violet-gray complex.\nAnother device has been defined, which is even more specific in Gram identification and which can also be used with blood agars of Columbia type. It consists of:\na medium consisting of a blood agar of Columbia type (with or without AlaDMpPD), and\na reaction mixture which impregnates a bottle brush and which is constituted on the basis of α-naphthol, potassium ferricyanide and AlaDMpPD and then dried.\nThis reaction mixture contained in the bottle brush was further improved by adding a step of drying the bottle brushes, which facilitates their subsequent manipulation.\nThe exact composition is as follows:\nfor the agar, presence or absence of AlaDMpPD at 0.075 gram per liter (g/l), and\nα-naphthol from 0.01 to 5 g/l, preferably from 0.1 to 1 g/l, and for example 0.5 g/l,\npotassium ferricyanide from 0.01 to 5 g/l, preferably from 0.1 to 1 g/l, and for example 0.5 g/l, and\nAlaDMpPD from 0.01 to 5 g/l, preferably from 0.1 to 1 g/l, and for example 0.35 g/l.\nThe results obtained in terms of sensitivity and specificity are thus the best obtained. In this case, the detection of the reaction is not instantaneous. It takes 15 to 30 seconds (s) to observe the appearance of any coloration, this being the time required for hydrolysis of the substrate by the bacterial aminopeptidase.\nSixty-one strains on different media such as: Polyvitex chocolate agar (registered trademark), CPS ID2 medium (registered trademark), TSA +/− blood and Columbia +/− blood were tested with bottle brushes impregnated with α-naphthol, potassium ferricyanide and AlaDMpPD and then dried.\nTo further improve the reaction time, a reaction activator is incorporated into the medium.\nThis small amount corresponds to a concentration of from 0.01 to 0.5 g/l, preferably from 0.05 to 0.1 g/l, and for example 0.075 g/l.\nAccording to one embodiment, it is also possible to add a binder to the bottle brush. The addition of a binder makes it possible both to gather together the fibers in the head of the bottle brush and to limit the release of products present on the bottle brush into the inoculum suspension. Such a binder can consist of PolyVinylPyrrolidone (PVP), which in fact makes it possible not only to satisfy the above criteria but also to substantially increase the specificity. In the composition described above with the concentrations, the PVP is introduced into the constituents of the viscose head of the bottle brush in a concentration of from 1 to 50 g/l, preferably from 10 to 25 g/l, and for example 15 g/l.\nAn evaluation of this medium was thus carried out on one hundred and thirty-three (133) strains divided among the following species.", "data": [{"substance": "Alanine-Dimethyl-paraPhenyleneDiamine [AlaDMpPD]", "values": [{"measurement": "Gram-negative bacteria detected between 0 and 10 s", "value": "About 90%"}, {"measurement": "Sensitivity", "setting": "133 strains, bottle brush with α-naphthol, potassium ferricyanide, AlaDMpPD", "value": 93, "unit": "%"}, {"measurement": "false positives, number of strains", "setting": "C. ulcerans, of 2 strains", "value": 2}, {"measurement": "false positives, number of strains", "setting": "E. faecalis, of five (5) strains", "value": 1}, {"measurement": "false negatives, number of strains", "setting": "H. influenzae, of two (2) strains", "value": 1}, {"measurement": "false negatives, number of strains", "setting": "P. fluorescens, of five (5) strains", "value": 2}, {"measurement": "false positives, number of strains", "setting": "S. agalactiae, of four (4) strains", "value": 2}, {"measurement": "false positives, number of strains", "setting": "S. pyogenes, of 3 strains", "value": 3}, {"measurement": "result of Gram identification", "setting": "the strain of C. guilliermondii", "value": "false positives"}, {"measurement": "result of Gram identification", "setting": "the strain of C. parapsilosis", "value": "false positives"}]}]}
